# In PubChem BioAssay AID624413 (The Scripps Research Institute Molecular Screening Center, 2012):
# Only a part is listed here, and it is no random draw. The source made the active and inactive calls. Cut-off read from the data, not from the text of the source: active = inhibition above about 15%; inactive = the rest.
# Assay: viability loss in Jurkat lymphocytes – cell-based, luminescence, high throughput, cytotoxicity control for T. brucei MetRS inhibitor project (AID 624413);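 note: 0% = vehicle and 100% = reference inhibitor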
# Details: Jurkat cells viability, ATP luminescence; at 8.3 µM; hits give high values
row,Compound,inhibition
1,CCC1=CC2Cc3nc4ccc(Cl)cc4c(N)c3C(C1)C2 (configuration not stated),active: 54.7%
2,O=P(Nc1nc2ccc(Cl)cc2s1)(c1ccccc1)c1ccccc1,inactive: 1.29%
